According to US20240408065A1, “CYANO COMPOUND, AND PREPARATION METHOD THEREFOR AND USE THEREOF” (SHANGHAI INSTITUTE OF MATERIA MEDICA, CHINESE ACADEMY OF …, priority 2021, published 2024):

Tested on: SARS-CoV-2 Delta strain (B.1.617.2)
Assay: microbe, parasite or virus in culture
Conditions: Severe acute respiratory syndrome coronavirus 2, Vero C1008

## CC(C)(C)[C@H](NC(=O)C(F)(F)F)C(=O)N1CC2(C[C@H]1C(=O)N[C@H](C#N)C[C@@H]1CCNC1=O)SCCS2 [Compound 2]
  IC50: 0.04 µM
